A mixed list of measured activities; the numbers were collected in NIAID ChemDB.

Shared fields: whole-cell or culture tests; organism: Candida albicans

A number after MIC or MFC names an inhibition level or a share of isolates. ECn: concentration that inhibits the pathogen or its effect by n%. Neighbouring rows are from separate reports. An empty or dashed field is not shown.

compound | strain or isolate | read by | read-out | conditions | value
CC(O)Cc1ccc(Cn2cc(CN3CCN([C@H](C)[C@](O)(Cn4cncn4)c4ccc(F)cc4F)CC3)c3ccccc32)cc1 | ATCC MYA-1003 | resazurin | MIC80 | - | >128 µg/mL
CC(O)C1NC(=O)C(CCc2ccc(O)cc2)NC(=O)C2C[C@@H](O)CN2C(=O)C(C(C)O)NC(=O)[C@@H](N)CCCNC(=O)C2C[C@H](N)CN2C1=O | ATCC CCH442 | - | MIC | - | >100 µg/mL
Cc1c(Sc2ccccc2)[n+](=O)c2cc(C(F)(F)F)ccc2n1[O-] | Clinical isolate 2 | - | MIC | - | 31.25 µg/mL
CCC(C)CC(C)CCCCCCCCC(=O)NC1C[C@H](O)[C@@H](O)NC(=O)[C@@H]2[C@@H](O)[C@@H](C)CN2C(=O)[C@H]([C@H](O)CC(N)=O)NC(=O)[C@H](C(O)[C@H](O)c2ccc(O)cc2)NC(=O)[C@@H]2C[C@@H](O)CN2C(=O)[C@H]([C@@H](C)O)NC1=O | MY1783 | - | MIC | - | 0.25 µg/mL
CCCCCCCCCCCCOc1ccc(-c2ccc(C(=O)N[C@H]3CCCNC(=O)C4C[C@H](N)CN4C(=O)C(C(C)O)NC(=O)C(CCc4ccc(O)cc4)NC(=O)C4C[C@@H](O)CN4C(=O)C(C(C)O)NC3=O)cc2)cc1 | ATCC 10231 | - | MIC | - | 0.39 µg/mL
C[C@@H](N1CCN(Cc2cn(Cc3ccc(Cl)cc3Cl)c3cc(Cl)ccc23)CC1)[C@](O)(Cn1cncn1)c1ccc(F)cc1F | ATCC 36082 | resazurin | MIC80 | - | 0.125 µg/mL
Cc1c(Sc2ccccc2)[n+](=O)c2cc(Cl)ccc2n1[O-] | Clinical isolate 5 | - | MIC | - | 31.25 µg/mL
CCCCCOc1ccc(-c2cc(-c3ccc(C(=O)N[C@H]4C[C@@H](O)[C@@H](O)NC(=O)[C@@H]5[C@@H](O)[C@@H](C)CN5C(=O)[C@H]([C@H](O)CC(N)=O)NC(=O)[C@H]([C@H](O)[C@@H](O)c5ccc(O)c(OS(=O)(=O)O)c5)NC(=O)[C@@H]5C[C@@H](O)CN5C(=O)[C@H]([C@@H](C)O)NC4=O)cc3)no2)cc1 | Fluconazole-resistant 4 isolates pooled | - | MIC50 | - | 0.0156 µg/mL
Cc1c(O)cccc1C(=O)N[C@@H](CSc1ccccc1)[C@H](O)CN1C[C@H]2CCCC[C@H]2C[C@H]1C(=O)NC(C)(C)C | I5F | - | MIC | - | >64 µg/mL
C=CCc1ccc(O)c(OC)c1 | 3087 | turbidity | MIC90 | - | 500 µg/mL
C[C@@H](N1CCN(Cc2cn(Cc3ccc(Cl)cc3Cl)c3ccccc23)CC1)[C@](O)(Cn1cncn1)c1ccc(F)cc1F | ATCC 90028 | resazurin | MIC80 | - | 0.125 µg/mL
C[C@@H](c1ncncc1F)[C@](O)(Cn1cncn1)c1ccc(F)cc1F | 15 isolates | broth dilution | MIC | pH 5 | 0.03 µg/mL
Fc1ccc(COc2ccc(C(c3cccc4ccccc34)n3ccnc3)cc2)cc1.O=[N+]([O-])O | 16 strains | - | MIC90 | - | ≥256 µg/mL
Clc1ccc(COC(Cn2ccnc2)c2ccc(Cl)cc2Cl)c(Cl)c1 | 10 isolates | broth dilution | MIC | pH 7 | 0.125 µg/mL
Cc1c(S(=O)(=O)c2ccccc2)[n+](=O)c2ccccc2n1[O-] | Clinical isolate 17 | - | MIC | - | 15.6 µg/mL
C[C@@H](N1CCN(Cc2cn(Cc3cccc(C(F)(F)F)c3)c3ccccc23)CC1)[C@](O)(Cn1cncn1)c1ccc(F)cc1F | ATCC 90028 | resazurin | MIC80 | - | 0.125 µg/mL
CCCCCOc1ccc(-c2ccc(-c3ccc(C(=O)N[C@H]4CCCNC(=O)[C@@H]5C[C@H](NC(C)=O)CN5C(=O)[C@H]([C@@H](C)O)NC(=O)[C@H](CCc5ccc(O)cc5)NC(=O)[C@@H]5C[C@@H](O)CN5C(=O)[C@H]([C@@H](C)O)NC4=O)cc3)cc2)cc1 | ATCC CCH442 | - | MIC | - | 0.2 µg/mL
Fc1ccccc1COc1ccc(C(c2nccc3ccccc23)n2ccnc2)cc1 | 17 strains | - | Mean MIC | - | 41.3 µg/mL
CCC(C)n1ncn(-c2ccc(N3CCN(c4ccc(OC[C@H]5CO[C@](Cn6cncn6)(c6ccc(Cl)cc6Cl)O5)cc4)CC3)cc2)c1=O | ATCC 24433 | - | MIC | - | 0.12 µg/mL
CCCCCCCCCCCCCCCCCC(=O)NC1CC(O)C(O)NC(=O)C2C(O)C(C)CN2C(=O)C(C(C)O)NC(=O)C(C(O)C(O)c2ccc(O)cc2)NC(=O)C2CC(O)CN2C(=O)C(C(C)O)NC1=O | MY1028 | - | MIC | - | 1 µg/mL
C=CCn1cc(CN2CCN([C@H](C)[C@](O)(Cn3cncn3)c3ccc(F)cc3F)CC2)c2ccc(Cl)cc21 | ATCC 64548 | resazurin | MIC80 | - | 0.125 µg/mL
Clc1ccccc1COc1ccc(C(c2ccc3ccccc3c2)n2ccnc2)cc1.O=[N+]([O-])O | 16 strains | - | MIC90 | - | ≥256 µg/mL
N=C(N)c1ccc2nc(-c3ccc(-c4nc5ccc(C(=N)N)cc5[nH]4)[nH]3)[nH]c2c1 | 21 strains | - | Geometric mean MFC | - | 1.47 µg/mL
CCCCCOc1ccc(-c2ccc(-c3ccc(C(=O)N[C@H]4CCCNC(=O)C5C[C@H](N)CN5C(=O)C(CCCN(C)C)NC(=O)C(CCc5ccc(O)cc5)NC(=O)C5C[C@@H](O)CN5C(=O)C(C(C)O)NC4=O)cc3)cc2)cc1 | ATCC CCH442 | - | MIC | - | 0.2 µg/mL
CCOc1cc2c(cc1F)n([O-])c(C)c(Cl)[n+]2=O | Clinical isolate 17 | - | MIC | - | 62.5 µg/mL
C[C@H]1[C@H](O)[C@@H](C)/C=C/C=C/C=C/C=C/C=C/C=C/C=C/[C@H](O[C@@H]2O[C@H](C)[C@@H](O)[C@H](N)[C@@H]2O)C[C@@H]2O[C@](O)(C[C@@H](O)C[C@@H](O)CC[C@H](O)[C@@H](O)C[C@@H](O)CC(=O)O[C@H]1C)C[C@H](O)[C@H]2C(=O)O | 34 isolates | - | MIC90 | - | 0.5 µg/mL
CCC(C)CC(C)CCCCCCCCC(=O)N[C@H]1C[C@@H](O)[C@H](NCCN)NC(=O)[C@@H]2[C@@H](O)CCN2C(=O)[C@H]([C@H](O)CCN)NC(=O)[C@H]([C@H](O)[C@@H](O)c2ccc(O)cc2)NC(=O)[C@@H]2C[C@@H](O)CN2C(=O)[C@H]([C@@H](C)O)NC1=O | 15 isolates | broth dilution | MIC | pH 7 | 0.06 µg/mL
Clc1ccccc1C(c1nccc2ccccc12)n1ccnc1 | 44 strains | - | MIC90 | - | 256 µg/mL
Nc1[nH]c(=O)ncc1F | 15 isolates | broth dilution | EC90 | pH 5 | 0.25 µg/mL
Clc1ccc(COc2ccc(C(c3cccc4ccccc34)n3ccnc3)cc2)cc1.O=[N+]([O-])O | 16 strains | - | Mean MIC | - | ≥256 µg/mL
CCCCCOc1ccc(-c2ccc(-c3ccc(C(=O)N[C@H]4CCCNC(=O)[C@@H]5C[C@H](N)CN5C(=O)[C@H](CCCN=C(N)N)NC(=O)C(CCc5ccc(O)cc5)NC(=O)[C@@H]5C[C@@H](O)CN5C(=O)[C@H]([C@@H](C)O)NC4=O)cc3)cc2)cc1 | ATCC CCH442 | - | MIC | - | 0.2 µg/mL